Pooled drug test results. Numbers come from NIAID ChemDB, via PubChem.

All rows: cytotoxicity tests; cell line: HeLa; endpoint: CC50

Blank or dashed fields: not listed here. CCn is the concentration with n% toxicity to the cells. Lines come from different laboratories, so protocols vary.

{"structure": "CC(C)(C)c1ccc2c(c1)CSSC2", "method": "MTT", "result": "125.2 µM"}
{"structure": "Nc1ncnc2c1CCN2[C@@H]1O[C@H](CSCCC(N)C(=O)O)C[C@H]1O", "result": "200 µg/mL"}
{"structure": "O=C(Nc1ccccc1OCc1ccccn1)c1c(O)c2cccnc2n(O)c1=O", "result": ">100 µM"}
{"structure": "CCOC(=O)[C@@]1(C)CC[C@]2(C)CC[C@]3(C)C(=CC(=O)[C@@H]4[C@@]5(C)CC/C(=N\\OCc6ccc(C(=O)OC)o6)C(C)(C)[C@@H]5CC[C@]43C)[C@@H]2C1", "method": "MTT", "result": "20.53 µM"}
{"structure": "Cc1cccc2c1CSSC2", "method": "MTT", "result": "267.4 µM"}
{"structure": "COC1=C(OCc2ccc([N+](=O)[O-])cc2)/C(=C/Cn2cnc3c(Cl)ncnc32)OC1=O", "result": "19.32 µM"}
{"structure": "Nc1ncnc2c([C@@H]3O[C@H](CO)C[C@H]3O)[nH]nc12", "result": ">400 µg/mL"}
{"structure": "CS(=O)(=O)c1ccc(NCc2ccc(Cl)c(Cl)c2)nc1", "result": ">10 µg/mL"}
{"structure": "Cc1ccc(C(=O)CCCCOc2ccc(C3=NC(C)CO3)cc2)s1", "result": "13 µM"}
{"structure": "CCOC(=O)c1ccc(OCCCCC(=O)c2sccc2C)cc1", "result": "202 µM"}
{"structure": "CCOC(=O)[C@@]1(C)CC[C@]2(C)CC[C@]3(C)C(=CC(=O)[C@@H]4[C@@]5(C)CC/C(=N\\OCc6cccc7ccccc67)C(C)(C)[C@@H]5CC[C@]43C)[C@@H]2C1", "method": "MTT", "result": ">100 µM"}
{"structure": "C=CCSc1n[nH]c(-c2cccc([N+](=O)[O-])c2C)n1", "result": "26.42 µg/mL"}
{"structure": "Cc1ccc(C(=O)CCCCOc2ccc(C3=NCCO3)cc2)s1", "result": "146 µM"}
{"structure": "CCOC(=O)c1ccc(OCCCCC(=O)c2ccc(C)c(C)c2)cc1", "result": "146 µM"}
{"structure": "O=[N+]([O-])c1ccc2c(c1)CSSC2", "method": "MTT", "result": "40.8 µM"}
{"structure": "CCOC(=O)c1ccc(OCCCCC(=O)c2ccc(F)cc2)cc1", "result": ">290 µM"}
{"structure": "CCSc1n[nH]c(-c2ccc([N+](=O)[O-])c(C)c2)n1", "result": "6.5 µg/mL"}
{"structure": "CCOC(=O)[C@@]1(C)CC[C@]2(C)CC[C@]3(C)C(=CC(=O)[C@@H]4[C@@]5(C)CC/C(=N\\OCc6ccc7ccccc7c6)C(C)(C)[C@@H]5CC[C@]43C)[C@@H]2C1", "method": "MTT", "result": "81.28 µM"}
{"structure": "Nc1ncnc2c1ncn2[C@@H]1O[C@H](CSCCC(N)C(=O)O)C[C@H]1O", "result": "400 µg/mL"}
{"structure": "CCOC(=O)[C@@]1(C)CC[C@]2(C)CC[C@]3(C)C(=CC(=O)[C@@H]4[C@@]5(C)CC/C(=N\\OCc6ccc(C)cc6)C(C)(C)[C@@H]5CC[C@]43C)[C@@H]2C1", "method": "MTT", "result": "28.03 µM"}
{"structure": "C#CCSc1n[nH]c(-c2ccc(C(F)(F)F)cc2)n1", "result": "6.22 µg/mL"}
{"structure": "CCOC(=O)[C@@]1(C)CC[C@]2(C)CC[C@]3(C)C(=CC(=O)[C@@H]4[C@@]5(C)CC/C(=N\\OCc6cc(C)cc(C)c6)C(C)(C)[C@@H]5CC[C@]43C)[C@@H]2C1", "method": "MTT", "result": "42.24 µM"}
{"structure": "CCOC(=O)c1ccc(OCCCCC(=O)c2cc(C)n(C)c2C)cc1", "result": "56 µM"}
{"structure": "Cc1ccc2c(c1)CSSC2", "method": "MTT", "result": "226 µM"}
{"structure": "Cc1ccc(C(=O)CCCCCCOc2ccc(C3=NCCO3)cc2)s1", "result": ">269 µM"}
{"structure": "CCOC(=O)c1c(O)c2cc(-c3cccc(OC)c3)cnc2n(O)c1=O", "result": "<100 µM"}
{"structure": "CC(=O)NC(CCSC[C@H]1O[C@@H](n2ccc3c(N)ncnc32)[C@H](O)[C@@H]1O)C(=O)OC(C)C", "result": "200 µg/mL"}
{"structure": "CS(=O)(=O)c1ccc(NCCc2ccc(Cl)cc2)nc1", "result": ">10 µg/mL"}
{"structure": "CNC(=O)c1cccc(-c2cc(=O)n(O)c3ncccc23)c1", "result": "<100 µM"}
{"structure": "CCOC(=O)[C@@]1(C)CC[C@]2(C)CC[C@]3(C)C(=CC(=O)[C@@H]4[C@@]5(C)CC/C(=N\\OCc6cccc(C)c6)C(C)(C)[C@@H]5CC[C@]43C)[C@@H]2C1", "method": "MTT", "result": "42.19 µM"}
{"structure": "COc1c(N2C[C@@H]3CCCN[C@@H]3C2)ccc2c(=O)c(C(=O)O)cn(C3CC3)c12", "result": "183 µg/mL"}
{"structure": "C=CCSc1n[nH]c(-c2ccc(C(F)(F)F)cc2)n1", "result": "48.4 µg/mL"}
{"structure": "CCOC(=O)c1ccc(OCCCC(=O)c2ccc(C)s2)cc1", "result": ">301 µM"}
{"structure": "O=C(Nc1cccnc1)c1c(O)c2cccnc2n(O)c1=O", "result": "<100 µM"}
{"structure": "Cc1csc(C(=O)CCCCOc2ccc(C3=NCCO3)cc2)c1", "result": "73 µM"}
{"structure": "COC(=O)C(Cc1ccc(OCCCCCCC(=O)c2ccc(C)s2)cc1)NC(C)=O", "result": "83 µM"}
{"structure": "CS(=O)(=O)c1ccc(Cc2ccc(N)cc2)nc1", "result": ">10 µg/mL"}
{"structure": "C[C@H]1NCc2cc(-c3ccc4c(=O)c(C(=O)O)cn(C5CC5)c4c3OC(F)F)ccc21", "result": ">200 µg/mL"}
{"structure": "COc1ccc(C(=O)CCCCOc2ccc(C3=NCCO3)cc2)cc1", "result": ">283 µM"}
{"structure": "CCOC(=O)c1ccc(OCCCCC(=O)c2ccc(C)o2)cc1", "result": "65 µM"}
{"structure": "CCC1COC(c2ccc(OCCCCCCC(=O)c3ccc(C)s3)cc2)=N1", "result": "15 µM"}
{"structure": "CCCCSc1n[nH]c(-c2cccc([N+](=O)[O-])c2C)n1", "result": "27.3 µg/mL"}
{"structure": "CCS(=O)(=O)c1ccc(Cc2ccc(Cl)c(Cl)c2)nc1", "result": ">10 µg/mL"}
{"structure": "CCOC(=O)C(N)CCSC[C@H]1O[C@@H](n2ccc3c(N)ncnc32)[C@H](O)[C@@H]1O", "result": "100 µg/mL"}
{"structure": "Cc1ccc(C(=O)CCCCOc2ccc(C3=NCCO3)cc2)s1", "result": "146 µM"}
{"structure": "Clc1ccc2c(c1)CSSC2", "method": "MTT", "result": "69.6 µM"}
{"structure": "CCOC(=O)c1c(Nc2ccccc2)c2cccnc2n(O)c1=O", "result": "<100 µM"}
{"structure": "COc1c(N2CCNC(C)C2)c(F)cc2c(=O)c(C(=O)O)cn(C3CC3)c12", "result": "252 µg/mL"}
{"structure": "C#CCSc1n[nH]c(-c2ccc(Cl)cc2C)n1", "result": "9.35 µg/mL"}
{"structure": "O=C1O/C(=C\\Cn2cnc3c(Cl)ncnc32)C(OCc2ccc([N+](=O)[O-])cc2)=C1OCc1ccc([N+](=O)[O-])cc1", "result": "16.97 µM"}
{"structure": "CC(C)(C)C(=O)OCn1nc([C@@H]2O[C@H](CO)[C@@H](O)[C@H]2O)c2ncnc(N)c21", "result": "40 µg/mL"}
{"structure": "O=C(CCCCOc1c(Cl)cc(C2=NCCO2)cc1Cl)c1ccc(Cl)cc1", "result": "35 µM"}

A second listing of 6 rows from above:

structure,method,result
C#CCSc1n[nH]c(-c2ccc(Cl)cc2C)n1,-,9.35 µg/mL
CC(C)(C)c1ccc2c(c1)CSSC2,MTT,125.2 µM
CS(=O)(=O)c1ccc(Cc2ccc(N)cc2)nc1,-,>10 µg/mL
Nc1ncnc2c([C@@H]3O[C@H](CO)C[C@H]3O)[nH]nc12,-,>400 µg/mL
O=C1O/C(=C\Cn2cnc3c(Cl)ncnc32)C(OCc2ccc([N+](=O)[O-])cc2)=C1OCc1ccc([N+](=O)[O-])cc1,-,16.97 µM
CCS(=O)(=O)c1ccc(Cc2ccc(Cl)c(Cl)c2)nc1,-,>10 µg/mL